Anti-infective test results gathered from many reports (values: NIAID ChemDB through PubChem).

Shared fields: growth or infection tests; species: Mycobacterium avium complex; endpoint: MIC90

Rows are shuffled and stem from different studies. Blank or dashed fields: not listed here. A number after MIC or MFC names an inhibition level or a share of isolates.

SMILES,strain,result
N[C@@H]1CONC1=O,-,18 µg/mL
O=C(O)c1cn(C2CC2)c2c(F)c(N3CCN4CCC3C4)c(F)cc2c1=O,-,4 µg/mL
Cc1c(F)c(N2CCNC(C)C2)cc2c1c(=O)c(C(=O)O)cn2C1CC1,16 isolates,25 µg/mL
O=C(O)c1cn(-c2ccc(F)cc2)c2cc(N3CCNCC3)c(F)cc2c1=O,14 strains,8 µg/mL
CC1CCN(c2c(F)cc3c(=O)c(C(=O)O)cn(C4CC4)c3c2F)C1,-,8 µg/mL
CO[C@H]1/C=C/O[C@@]2(C)Oc3c(C)c(O)c4c(O)c(c5c(c4c3C2=O)NC2(CCN(CC(C)C)CC2)N=5)=NC(=O)/C(C)=C\C=C\[C@H](C)[C@H](O)[C@@H](C)[C@@H](O)[C@@H](C)[C@H](OC(C)=O)[C@@H]1C,-,0.41 µg/mL
NCC[C@H](O)C(=O)N[C@@H]1C[C@H](N)[C@@H](O[C@H]2O[C@H](CN)[C@@H](O)[C@H](O)[C@H]2O)[C@H](O)[C@H]1O[C@H]1O[C@H](CO)[C@@H](O)[C@H](N)[C@H]1O,37 strains,8 µg/mL
O=C(O)c1cn(C2CC2)c2c(F)c(N3CC4CC3CN4)c(F)cc2c1=O,-,8 µg/mL
CCn1cc(C(=O)O)c(=O)c2cc(F)c(N3CCNCC3)cc21,22 strains,16 µg/mL
O=C(O)c1cn(C2CC2)c2c(F)c(N3CCC(n4ccnc4)C3)c(F)cc2c1=O,-,16 µg/mL
CC(C)N=c1cc2n(-c3ccc(Cl)cc3)c3ccccc3nc-2cc1Nc1ccc(Cl)cc1,37 strains,8 µg/mL
CO[C@H]1/C=C/O[C@@]2(C)Oc3c(C)c(O)c4c(O)c(c5c(c4c3C2=O)NC2(CCN(CC(C)C)CC2)N=5)=NC(=O)/C(C)=C\C=C\[C@H](C)[C@H](O)[C@@H](C)[C@@H](O)[C@@H](C)[C@H](OC(C)=O)[C@@H]1C,20 strains,1.6 µg/mL
O=C(O)c1cn(C2CC2)c2nc(N3CCN4CC3C4)c(F)cc2c1=O,-,32 µg/mL
CNC1CCCN(c2c(F)cc3c(=O)c(C(=O)O)cn(C4CC4)c3c2OC)C1,16 isolates,25 µg/mL
CCCCOP(=O)(OCCCC)OCCCC,32 isolates,>128 µg/mL
CCCN1CCN(c2cc(=O)c3nc4c(oc3c2)c2c(=O)c3c(O)c(C)c5c(c34)=C(O)[C@@](C)(O/C=C/[C@H](OC)[C@@H](C)[C@@H](OC(C)=O)[C@H](C)[C@H](O)[C@H](C)[C@@H](O)[C@@H](C)/C=C/C=C(/C)C(=O)N2)O5)CC1,18 strains,6.25 µg/mL
c1ccc(N=Nc2ccccc2)cc1,32 isolates,>128 µg/mL
C[C@@H]1CN(c2c(F)c(N)c3c(=O)c(C(=O)O)cn(C4CC4)c3c2F)C[C@H](C)N1,37 strains,16 µg/mL
O=C(O)c1cn(C2CC2)c2c(F)c(N3CCNCC3)c(F)cc2c1=O,14 strains,4 µg/mL
NCC[C@H](O)C(=O)N[C@@H]1C[C@H](N)[C@@H](O[C@H]2O[C@H](CN)[C@@H](O)[C@H](O)[C@H]2O)[C@H](O)[C@H]1O[C@H]1O[C@H](CO)[C@@H](O)[C@H](N)[C@H]1O,-,3.55 µg/mL
CN(C)[C@@H]1C(=O)C(C(N)=O)=C(O)[C@@]2(O)C(=O)C3=C(O)c4c(O)cccc4[C@@](C)(O)[C@H]3C[C@@H]12,11 strains,>128 µg/mL
CCN1CCN(c2nc3c(cc2F)c(=O)c(C(=O)O)cn3C(C)(C)C)CC1,14 strains,4 µg/mL
CC[C@H]1OC(=O)[C@H](C)[C@@H](O[C@H]2C[C@@](C)(OC)[C@@H](O)[C@H](C)O2)[C@H](C)[C@@H](O[C@@H]2O[C@H](C)C[C@H](N(C)C)[C@H]2O)[C@](C)(OC)C[C@@H](C)C(=O)[C@H](C)[C@@H](O)[C@]1(C)O,22 strains,8 µg/mL
CC1CCN(c2c(F)cc3c(=O)c(C(=O)O)cn(C4CC4)c3c2F)C1,14 strains,8 µg/mL
CN(C)c1cc(NC(=O)CNC(C)(C)C)c(O)c2c1C[C@H]1C[C@H]3[C@H](N(C)C)C(=O)C(C(N)=O)=C(O)[C@@]3(O)C(=O)C1=C2O,11 strains,>32 µg/mL
CC1CN(c2cc3c(cc2F)c(=O)c(C(=O)O)cn3C(C)C)CC(C)N1,14 strains,16 µg/mL
C[C@@H]1CN(c2c(F)c(N)c3c(=O)c(C(=O)O)cn(C4CC4)c3c2F)C[C@H](C)N1,-,4 µg/mL
NC[C@H]1O[C@H](O[C@H]2[C@H](O)[C@@H](O[C@H]3O[C@H](CO)[C@@H](O)[C@H](N)[C@H]3O)[C@H](N)C[C@@H]2N)[C@H](O)[C@@H](O)[C@@H]1O,-,5.45 µg/mL
Cc1cc2nc3c(=O)[nH]c(=O)nc-3n(C[C@H](O)[C@H](O)[C@H](O)CO)c2cc1C,32 isolates,128 µg/mL
CC[C@@H](CO)NCCN[C@@H](CC)CO,-,3.8 µg/mL
COc1ccc2c(c1)c(CC(=O)O)c(C)n2C(=O)c1ccc(Cl)cc1,32 isolates,>128 µg/mL
CC1CN(c2cc3c(cc2F)c(=O)c(C(=O)O)cn3C(C)(C)C)CCN1,14 strains,1 µg/mL
CC1CN(c2c(F)cc3c(=O)c(C(=O)O)cn(C4CC4)c3c2F)C(C)CN1,14 strains,4 µg/mL
Clc1ccc2c(c1)nc1cc(Nc3ccccc3)c(=NC3CCCCC3)cc-1n2-c1ccccc1,-,0.17 µg/mL
CC(C)N1CCN(c2cc3c(cc2F)c(=O)c(C(=O)O)cn3C(C)(C)C)CC1,14 strains,8 µg/mL
C[C@@H]1CN(c2c(F)c(N)c3c(=O)c(C(=O)O)cn(C4CC4)c3c2F)C[C@H](C)N1,16 isolates,6.25 µg/mL
CC[C@H]1OC(=O)[C@H](C)[C@@H](O[C@H]2C[C@@](C)(OC)[C@@H](O)[C@H](C)O2)[C@H](C)[C@@H](O[C@@H]2O[C@H](C)C[C@H](N(C)C)[C@H]2O)[C@](C)(OC)C[C@@H](C)C(=O)[C@H](C)[C@@H](O)[C@]1(C)O,20 strains,4 µg/mL
CCn1cc(C(=O)O)c(=O)c2cc(F)c(N3CCS(=O)CC3)c(F)c21,-,16 µg/mL
CC1CN(c2nc3c(cc2F)c(=O)c(C(=O)O)cn3C2CC2)CC1N,-,21.8 µg/mL
CC[C@H]1OC(=O)[C@H](C)[C@@H](O[C@H]2C[C@@](C)(OC)[C@@H](O)[C@H](C)O2)[C@H](C)[C@@H](O[C@@H]2O[C@H](C)C[C@H](N(C)C)[C@H]2O)[C@](C)(O)C[C@@H](C)CN(C)[C@H](C)[C@@H](O)[C@]1(C)O,15 strains,25 µg/mL
O=C(O)c1cn(C2CC2)c2c(F)c(N3CCSCC3)c(F)cc2c1=O,14 strains,16 µg/mL
CO[C@H]1/C=C/O[C@@]2(C)Oc3c(C)c(O)c4c(O)c(c5c(c4c3C2=O)NC2(CCN(CC(C)C)CC2)N=5)=NC(=O)/C(C)=C\C=C\[C@H](C)[C@H](O)[C@@H](C)[C@@H](O)[C@@H](C)[C@H](OC(C)=O)[C@@H]1C,230 isolates,0.4 µg/mL
CN1CCN(c2c(F)cc3c(=O)c(C(=O)O)cn(CCF)c3c2F)CC1,16 isolates,100 µg/mL
CCn1cc(C(=O)O)c(=O)c2cc(F)c(N3CCNCC3)cc21,63 isolates,>16 µg/mL
CC(O)[C@H]1C(=O)N2C(C([O-])O)=C(SC3Cn4cnc[n+]4C3)[C@H](C)[C@H]12,24 strains,32 µg/mL
CO[C@H]1/C=C/O[C@@]2(C)Oc3c(C)c(O)c4c(O)c(c(/C=N/N5CCN(C)CC5)c(O)c4c3C2=O)NC(=O)/C(C)=C\C=C\[C@H](C)[C@H](O)[C@@H](C)[C@@H](O)[C@@H](C)[C@H](OC(C)=O)[C@@H]1C,20 strains,>8 µg/mL
CN1CC2CCC1CN2c1c(F)cc2c(=O)c(C(=O)O)cn(C3CC3)c2c1F,14 strains,8 µg/mL
CC(C)N=c1cc2n(-c3ccc(Cl)cc3)c3ccccc3nc-2cc1Nc1ccc(Cl)cc1,20 strains,<0.125 µg/mL
CCn1cc(C(=O)O)c(=O)c2cc(F)c(N3CCNCC3)cc21,-,25.7 µg/mL

Again, the opening 6 rows:

SMILES,strain,result
N[C@@H]1CONC1=O,-,18 µg/mL
O=C(O)c1cn(C2CC2)c2c(F)c(N3CCN4CCC3C4)c(F)cc2c1=O,-,4 µg/mL
Cc1c(F)c(N2CCNC(C)C2)cc2c1c(=O)c(C(=O)O)cn2C1CC1,16 isolates,25 µg/mL
O=C(O)c1cn(-c2ccc(F)cc2)c2cc(N3CCNCC3)c(F)cc2c1=O,14 strains,8 µg/mL
CC1CCN(c2c(F)cc3c(=O)c(C(=O)O)cn(C4CC4)c3c2F)C1,-,8 µg/mL
CO[C@H]1/C=C/O[C@@]2(C)Oc3c(C)c(O)c4c(O)c(c5c(c4c3C2=O)NC2(CCN(CC(C)C)CC2)N=5)=NC(=O)/C(C)=C\C=C\[C@H](C)[C@H](O)[C@@H](C)[C@@H](O)[C@@H](C)[C@H](OC(C)=O)[C@@H]1C,-,0.41 µg/mL